Measured values published in patent publication US20040229242, “Methods of capturing, detecting and quantifying RNA:DNA hybrids and a modified RNase H useful therein” (published 2004).

Legend:
[1] = target: T1, RNase H1 chimeric D134A mutant (Escherichia coli / Yersinia pestis / Klebsiella pneumoniae chimera?) (UniProt A4TL54); assay: competition; conditions: 25 C
T1 sequence: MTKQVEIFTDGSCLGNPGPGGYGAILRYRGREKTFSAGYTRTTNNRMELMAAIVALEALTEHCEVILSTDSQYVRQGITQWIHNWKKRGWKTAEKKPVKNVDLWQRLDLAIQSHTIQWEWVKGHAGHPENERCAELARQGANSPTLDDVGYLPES

[2] = target: T2, RNase H1 combined mutant (chimera + G94) (Escherichia coli / Yersinia pestis / Klebsiella pneumoniae chimera?) (UniProt A4TL54); assay: competition; conditions: 25 C
T2 sequence: T1 sequence with E94G

[3] = competition vs RNA:DNA#1, filter binding
[4] = competition vs RNA:DNA#2, filter binding
[5] = competition vs RNA:DNA#3, filter binding

For “heat-denatured sheared salmon sperm ssDNA”, the IC50 [1, 3] was 12 µM, the IC50 [1, 4] was 55 µM and the IC50 [1, 5] was 33 µM. For the same substance, the IC50 [2, 3] was 94 µM, the IC50 [2, 4] was 84 µM and the IC50 [2, 5] was 44 µM.

Residue numbers refer to the chain shown, from its start.
